Literature values, collected in publication PMC11091888, “Evaluation of Fusobacterium nucleatum Enoyl-ACP Reductase (FabK) as a Narrow-Spectrum Drug Target” (ACS Infectious Diseases, 2024).

Test system: CdFabK
Parameters: method as in PMID 37224699
Details: previously reported; cited from earlier work

Compound	Hill slope (CdFabK inhibition)
CS(=O)(=O)c1ccc2nc(NC(=O)NCc3nc(-c4ccc(Br)cc4)c[nH]3)sc2c1 [Compound 681, 1-((4-(4-bromophenyl)-1H-imidazole-2-yl)methyl)-3-(6-(methylsulfonyl)benzo[d]thiazol-2-yl)urea]	0.97
O=C(NCc1nc(-c2ccc(Br)cc2)c[nH]1)Nc1nc2ccccc2s1 [Compound 701]	0.94
